Source: PubChem BioAssay AID624099 (ICCB-Longwood, 2012)
Shown is one part, drawn at random, of about 21,000 reagents. 497 of all reagents (2.4%) were called active. 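Higher z means weaker E2 silencing; only reporter increases were scored, and knock-downs that hurt cell survival may mask genuine repressor factors.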

Assay: 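Knock-downs relieving repression by E2 of an HPV18 LCR luciferase reporter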 (primary screen)
Cell system: human C33A cervical carcinoma cells (HPV-negative) stably expressing BPV1 E2 and an HPV18 LCR luciferase reporter
Knock-down reagent: siRNA pool against human genes, 40 nM
Timing: 72 h
Read-out: 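HPV18 LCR reporter light per well, converted to plate-wise z-scores that exclude control wells, and averaged over triplicate plates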
Direction: mean z-score and z-score: higher = stronger reporter signal, weaker E2 silencing
Rule for the call: 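Hit if mean z-score reaches 2 and two or more of three replicate z-scores also reach 2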

gene	PubChem SID	mean z-score	z-score, replicate A	z-score, replicate B	z-score, replicate C	outcome
HAUS6	SID134322234	-0.92	-1.03	-0.97	-0.77	inactive
MAN2B1	SID134314378	-0.5	-0.46	-0.59	-0.44	inactive
HNRNPUL1	SID134310284	-0.09	-0.02	-0.03	-0.24	inactive
PCGF2	SID134311903	1.2	1.09	1.24	1.29	inactive
ZNF423	SID134317157	-0.36	-0.37	-0.2	-0.52	inactive
KIF13B	SID56478939	0.52	0.51	0.41	0.66	inactive
NUBPL	SID134324883	-1.32	-1.02	-1.53	-1.39	inactive
GARIN1A	SID134326362	-0.19	0.06	-0.35	-0.29	inactive
LOC389803 (retired record)	SID134328145	-0.33	-0.38	-0.64	0.04	inactive
PSIP1	SID134319259	-0.73	-0.86	-0.82	-0.51	inactive
SULT1A1	SID134313830	0.87	0.38	0.89	1.35	inactive
MRGPRE	SID134311103	-0.78	-0.65	-0.57	-1.12	inactive
RAET1L	SID134321055	0.82	1.21	0.78	0.46	inactive
C8orf74	SID134326399	-0.99	-0.79	-1.18	-0.99	inactive
CHRNA10	SID134311554	-1.16	-1.22	-1.06	-1.22	inactive
PRIM2	SID134310770	1.66	1.77	1.69	1.53	inactive
MX2	SID134316055	0.23	0.42	0.28	-0.03	inactive
LOC401328 (retired record)	SID134327752	0.09	0.12	0.15	-0.01	inactive
PTK2	SID56478542	-0.35	-0.32	-0.41	-0.32	inactive
NWD1	SID134328993	-0.13	0	0.08	-0.48	inactive
ZDHHC4	SID134320679	-0.86	-1.5	-0.81	-0.29	inactive
DPCD	SID134326889	1.07	1.04	1.08	1.08	inactive
NMBR	SID134310025	-0.23	-0.4	-0.47	0.2	inactive
ANP32CP	SID134315350	-0.11	-0.07	-0.16	-0.11	inactive
IL33	SID134319175	0.76	1.13	0.66	0.49	inactive
PTAFR	SID134311140	0	0.17	0.34	-0.5	inactive
LOC402617 (retired record)	SID134327910	-0.91	-0.58	-1.31	-0.84	inactive
CIMAP1D	SID134322573	-0.03	0.11	-0.1	-0.11	inactive
GIMAP8	SID134323018	0.11	0.37	-0.17	0.14	inactive
TAF15	SID134313771	0.17	0.24	0.25	0.02	inactive
LOC389338 (retired record)	SID134327532	-0.86	-0.86	-0.48	-1.24	inactive
LOC401330 (retired record)	SID134327753	-1.92	-2.04	-1.92	-1.79	inactive
FAM9A	SID134321831	-0.77	-0.59	-1	-0.71	inactive
DNAJC12	SID134318166	0.01	0.4	-0.39	0.02	inactive
ICOS	SID134316680	0.77	0.55	0.98	0.77	inactive
ENTPD8	SID134326862	-0.12	-0.01	-0.16	-0.2	inactive
DPH7	SID134320549	-1.39	-1.78	-1.29	-1.11	inactive
PLVAP	SID134318820	-0.24	-0.28	-0.11	-0.34	inactive
FBLIM1P2	SID134328335	-0.03	0.19	-0.06	-0.23	inactive
CDC25B	SID56478587	0.69	0.73	0.69	0.64	inactive
FIS1	SID134324536	-0.29	-0.15	-0.36	-0.35	inactive
ZNF397	SID134318957	0.13	0.12	0.19	0.08	inactive
LOC402322 (retired record)	SID134327782	0.37	0.46	0.61	0.04	inactive
MICALL1	SID134319156	-1.33	-1.12	-1.36	-1.51	inactive
CCDC15	SID134318679	-0.33	-0.44	-0.45	-0.09	inactive
FANCE	SID134318182	1	1.24	0.95	0.82	inactive
FAU	SID134317383	-2.92	-3.1	-2.87	-2.81	inactive
ZNF750	SID134318574	1.84	2.3	2.22	0.99	inactive
SIGIRR	SID134313012	-1.54	-1.77	-1.74	-1.11	inactive
ODAD2	SID134317586	-1.1	-1.11	-1.28	-0.9	inactive
TNFRSF17	SID134315572	1.65	1.66	1.5	1.77	inactive
KRT37	SID134315843	-1.74	-1.82	-1.71	-1.7	inactive
MSH3	SID134323440	0.98	0.54	1.14	1.27	inactive
NR2C2	SID134309869	-0.11	-0.28	0.06	-0.12	inactive
ELN	SID134314066	1.78	1.65	1.82	1.88	inactive
LOX	SID134314521	-0.1	-0.23	0.12	-0.18	inactive
DRD1	SID134310924	-0.28	-0.17	-0.38	-0.29	inactive
LDHD	SID134313617	-0.56	-0.26	-0.29	-1.12	inactive
SLC12A9	SID134312438	0.44	0.56	0.46	0.3	inactive
RAD18	SID134310538	-0.74	-0.83	-0.83	-0.56	inactive
RBM41	SID134324608	-0.85	-0.87	-0.79	-0.89	inactive
SLTM	SID134318588	-1.1	-1.13	-1.37	-0.8	inactive
GJA5	SID134321307	1.45	1.71	1.24	1.41	inactive
VCX3A	SID134317526	-1.05	-0.47	-1.2	-1.47	inactive
KLK6	SID134311344	-0.58	-0.59	-0.46	-0.68	inactive
LOC390975 (retired record)	SID134326777	-1.58	-1.67	-1.57	-1.5	inactive
SLC38A8	SID134325488	0.1	0.32	0.25	-0.27	inactive
LZTR1	SID134316598	-1.33	-1.34	-1.25	-1.41	inactive
CNTN5	SID134312796	-0.36	-0.3	-0.32	-0.46	inactive
RPL22	SID134315501	1.26	1.15	1.26	1.38	inactive
GSTK1	SID134324584	1.28	1.03	1.34	1.46	inactive
DDX11	SID134316159	-0.31	-0.04	-0.55	-0.34	inactive
XRCC3	SID134316364	0.64	0.67	0.58	0.66	inactive
